Results deposited as PubChem BioAssay AID624099 (ICCB-Longwood, 2012)

Screen: 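Human genes that papillomavirus E2 requires to repress the HPV18 LCR promoter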 (primary screen)
Cell system: human C33A cervical carcinoma cells (HPV-negative) stably expressing BPV1 E2 and an HPV18 LCR luciferase reporter
Reagents: siRNA pool against human genes, 40 nM
Duration: 72 h
Detection: 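HPV18 LCR reporter light per well, converted to plate-wise z-scores that exclude control wells, and averaged over triplicate plates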
Direction: mean z-score and z-score: higher = stronger reporter signal, weaker E2 silencing
Hit rule: 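Mean z ≥ 2 together with z ≥ 2 in two or more of the three replicates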
The whole screen tested about 21,000 reagents; this is a random part of them. In the full data, 497 (2.4%) were called active. 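Higher z means weaker E2 silencing; only reporter increases were scored, and knock-downs that hurt cell survival may mask genuine repressor factors.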 Reagent sequences are not shown.

Depletion of BCRP2 came out at: mean z-score 0.39; z-score, replicate A = 0.23; z-score, replicate B = 0.12; z-score, replicate C = 0.82; inactive.
HSPA4 showed mean z-score -0.86; z-score, replicate A = -0.63; z-score, replicate B = -1.22; z-score, replicate C = -0.73; inactive.
With knock-down of RPLP0P6, the record shows mean z-score -0.16; z-score, replicate A = -0.5; z-score, replicate B = 0.16; z-score, replicate C = -0.14; inactive.
PCDHA4 gave mean z-score 0.79; z-score, replicate A = 0.48; z-score, replicate B = 0.77; z-score, replicate C = 1.12; inactive.
With knock-down of SOHLH2, the screen gave mean z-score -0.31; z-score, replicate A = -0.84; z-score, replicate B = -0.46; z-score, replicate C = 0.37; inactive.
With knock-down of SLC25A48, the record shows mean z-score 1.33; z-score, replicate A = 1.09; z-score, replicate B = 1.4; z-score, replicate C = 1.5; inactive.
DCTN6 gave mean z-score 0.12; z-score, replicate A = 0.04; z-score, replicate B = 0.21; z-score, replicate C = 0.1; inactive.
For PLCE1 the deposit lists mean z-score 2.26; z-score, replicate A = 2.47; z-score, replicate B = 2.29; z-score, replicate C = 2.02; active.
Against LRFN4, the entry reads mean z-score 0.36; z-score, replicate A = 0.38; z-score, replicate B = 0.52; z-score, replicate C = 0.2; inactive.
After knock-down of LAMC2, the screen gave mean z-score 0.36; z-score, replicate A = 0.74; z-score, replicate B = 0.29; z-score, replicate C = 0.06; inactive.
With knock-down of LOC390828 (retired record), the record shows mean z-score -0.7; z-score, replicate A = -0.29; z-score, replicate B = -0.69; z-score, replicate C = -1.11; inactive.
For CORO2A the deposit lists mean z-score -0.19; z-score, replicate A = -0.76; z-score, replicate B = 0.09; z-score, replicate C = 0.11; inactive.
CCN2 gave mean z-score 0.45; z-score, replicate A = 0.23; z-score, replicate B = 0.73; z-score, replicate C = 0.41; inactive.
Silencing of TMEM161B resulted in: mean z-score -0.14; z-score, replicate A = -0.08; z-score, replicate B = -0.55; z-score, replicate C = 0.22; inactive.
For KIF2A, the values are mean z-score 0.73; z-score, replicate A = 0.62; z-score, replicate B = 0.99; z-score, replicate C = 0.59; inactive.
For IQGAP2, the entry reads mean z-score 0.35; z-score, replicate A = 0.35; z-score, replicate B = -0.02; z-score, replicate C = 0.73; inactive.
Knock-down of LOC345378 (retired record) came out at: mean z-score 0.33; z-score, replicate A = -0.04; z-score, replicate B = 0.63; z-score, replicate C = 0.41; inactive.
For LOC388123 (retired record), the values are mean z-score 0.07; z-score, replicate A = -0.36; z-score, replicate B = 0.34; z-score, replicate C = 0.22; inactive.
With knock-down of C17orf78 the results were mean z-score -0.27; z-score, replicate A = -0.15; z-score, replicate B = -0.36; z-score, replicate C = -0.29; inactive.
CES2 gave mean z-score 0.25; z-score, replicate A = -0.02; z-score, replicate B = 0.22; z-score, replicate C = 0.55; inactive.
For TIMM23B, the values are mean z-score -0.07; z-score, replicate A = -0.09; z-score, replicate B = -0.11; z-score, replicate C = -0.01; inactive.

Not a retest: 2 of the entries above.
RPLP0P6 — mean z-score = -0.16; z-score, replicate A = -0.5; z-score, replicate B = 0.16; z-score, replicate C = -0.14; call = inactive
PCDHA4 — mean z-score = 0.79; z-score, replicate A = 0.48; z-score, replicate B = 0.77; z-score, replicate C = 1.12; call = inactive
